A mixed list of measured activities; the numbers were collected in NIAID ChemDB.

All rows: growth or infection tests; species: Mycobacterium bovis; endpoint: MIC

Blank or dashed fields: not listed here. a–b is a range or a potency band. Conditions beyond the fields shown may differ between rows.

compound,strain or isolate,method,result
C[C@]1(COc2ccc(N3CCC(Oc4ccc(OC(F)(F)F)cc4)CC3)cc2)Cn2cc([N+](=O)[O-])nc2O1,BCG/GLAXO,-,0.012 µg/mL
O=C1CCC(=O)N(O)CCCCCNC(=O)CCC(=O)N(O)CCCCCNC(=O)CCC(=O)N(O)CCCCCN1,BCG,MTT,>160 µM
Cc1cc(=O)n([C@@H]2O[C@H](C)C3CNC(=S)OC32)c(=O)[nH]1,BCG,-,100 µg/mL
O=C(O)CCCCCCCCCCCCC1C=CCC1,BCG Pasteur,GFP,2.36 µM
CCCCCCCCO[C@H]1COc2nc([N+](=O)[O-])cn2C1,rBCG-lux,-,8 µg/mL
C[C@@H]1CN(c2c(F)c(N)c3c(=O)c(C(=O)O)cn(C4CC4)c3c2F)C[C@H](C)N1,ATCC 19210,broth dilution / visual reading,0.1 µg/mL
COC1=C2C(=O)O[C@@]13C[C@@H](C)C=C[C@H]3/C=C/C(=O)[C@@H](C)C[C@@H](C)C2=O,-,-,40 µg/mL
O=[N+]([O-])c1cn2c(n1)OCC(O)C2,rBCG-lux,-,>128 µg/mL
CCCCCCC1=CN([C@@H]2O[C@H](CO)[C@@H](O)[C@@H]2O)NN1,BCG,resazurin,500 µg/mL
C/C=C/C/C=C/CCC(=O)[C@H]1O[C@H]1C(N)=O,BCG (PMV261::KASAB),-,0.2 µg/mL
Cc1c(C)c(C)[c-](C)c1C.N[C@H](C(=O)[O-])c1ccccc1.[Cl][Rh+2],ATCC 35745,-,7 µg/mL
CCCCCCCCCCC[C@@H](C[C@@H]1OC(=O)[C@H]1CCCCCC)OC(=O)[C@H](CC(C)C)NC=O,-,broth dilution,5 µg/mL
CC1COc2c(N3CCN(C)CC3)c(F)cc3c(=O)c(C(=O)O)cn1c23,5 strains,-,>0.63 µg/mL
CCOC(=O)c1ccc(NC(=O)Nc2cccc3c2OC(C)(C)CC3(C)C)cc1,BCG,-,20–40 µg/mL
CCC1Cn2cc([N+](=O)[O-])nc2O1,rBCG-lux,-,1 µg/mL
CCCCCC/C=C/CCc1ccc(O)cc1,BCG,resazurin,128 µM
CCCCCCCCCCCCc1ccc(NC(=O)C2=CCN(C)[C@@H]([C@H](O[C@@H]3O[C@H](CN)[C@@H](O)[C@H]3O)[C@H]3O[C@@H](n4ccc(=O)[nH]c4=O)[C@H](O)[C@@H]3O)C(=O)N2C)cc1,Ravenel,-,3.13 µg/mL
CC1(C)CC(C)(C)c2cc(NC(=S)Nc3ccc([N+](=O)[O-])cc3)ccc2O1,BCG,-,20–40 µg/mL
O=C(N[C@@H]1COc2nc([N+](=O)[O-])cn2C1)c1ccccc1,rBCG-lux,-,>8 µg/mL
CC(C)CCOc1ccc(NC(=S)Nc2ccc(OCCC(C)C)cc2)cc1,BCG,-,0.5 µg/mL
CCCCCCCCO[C@@H]1COc2nc([N+](=O)[O-])cn2C1,rBCG-lux,-,1 µg/mL
CCCCOc1ccc(NC(=S)Nc2ccc(SCCC)cc2)cc1,BCG,-,1.1 µg/mL
CCOC(=O)c1ccc(NC(=O)Nc2ccc3c(c2)C(C)=CC(C)(C)N3C)cc1,BCG,-,20–40 µg/mL
O=C(Nc1ccc(Cl)cc1)N[C@@H]1COc2nc([N+](=O)[O-])cn2C1,rBCG-lux,-,≤0.008 µg/mL
O=C(CCCCCCCC[C@H]1C=CCC1)OCC(O)CO,BCG Pasteur,GFP,0.52 µM

The first 2 rows once more:

compound	strain or isolate	method	result
C[C@]1(COc2ccc(N3CCC(Oc4ccc(OC(F)(F)F)cc4)CC3)cc2)Cn2cc([N+](=O)[O-])nc2O1	BCG/GLAXO	-	0.012 µg/mL
O=C1CCC(=O)N(O)CCCCCNC(=O)CCC(=O)N(O)CCCCCNC(=O)CCC(=O)N(O)CCCCCN1	BCG	MTT	>160 µM